{"source": "PubChem BioAssay AID504761, Drosophila RNAi Screening Center | 2011", "purpose": "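Genome-wide fly cell screen for genes dengue virus requires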 (primary screen)", "cells": "D.Mel-2 cells from Drosophila", "reagent": "long dsRNA against Drosophila genes", "challenge": "infection with dengue virus type 2; dose and infection time not stated", "measured": "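Cells stained for dengue envelope protein and imaged; percent of infected cells per well on duplicate plates, ranked by infection, with stained nuclei counted for cell number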", "direction": "infection score: higher = more virus-infected cells; cell count: higher = more cells in the well", "hit rule": "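Very low infection ranking in both replicate wells (chance probability at most 0.065), then a retest showing infection dropped 1.5-fold or more at p below 0.05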", "meaning of the calls": "active = confirmed: knock-down lowers infection; inactive = not picked or not confirmed", "note": "The screen tested about 22,000 reagents; shown is a random part of those that have a named target and a result. In the full data, 116 (0.52%) are marked active. 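Calls depend on retest data that are not deposited; infection was ranked per plate without normalising between plates; the unit of the infection score is not given.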 Raw values vary from plate to plate and are shown uncorrected. Reagents against one gene are numbered here. Names joined by + are all predicted targets of the reagent. Further read-outs or replicates are left out here. Not stated in the record: the amount of reagent, the time to read-out."}
{"gene": "unc-45 (uncoordinated 45)", "reagent no.": 1, "infection score, replicate 1": 5.06, "cell count, replicate 1": 6901, "outcome": "inactive"}
{"gene": "CG32727", "reagent no.": 1, "infection score, replicate 1": 2.84, "cell count, replicate 1": 6368, "outcome": "inactive"}
{"gene": "CG15432", "reagent no.": 1, "infection score, replicate 1": 15.1, "cell count, replicate 1": 6153, "outcome": "inactive"}
{"gene": "CG15432", "reagent no.": 2, "infection score, replicate 1": 2.18, "cell count, replicate 1": 6366, "outcome": "inactive"}
{"gene": "GATAd", "reagent no.": 1, "infection score, replicate 1": 3.77, "cell count, replicate 1": 5485, "outcome": "inactive"}
{"gene": "Acph-1 (Acid phosphatase 1)", "reagent no.": 1, "infection score, replicate 1": 4.82, "cell count, replicate 1": 6369, "outcome": "inactive"}
{"gene": "slow (slowdown)", "reagent no.": 1, "infection score, replicate 1": 9.62, "cell count, replicate 1": 6539, "outcome": "inactive"}
{"gene": "slow (slowdown)", "reagent no.": 2, "infection score, replicate 1": 2.33, "cell count, replicate 1": 6236, "outcome": "inactive"}
{"gene": "slow (slowdown)", "reagent no.": 3, "infection score, replicate 1": 12, "cell count, replicate 1": 5434, "outcome": "inactive"}
{"gene": "CG6972 + CCAP", "reagent no.": 1, "infection score, replicate 1": 24.5, "cell count, replicate 1": 5174, "outcome": "inactive"}
{"gene": "CG17803", "reagent no.": 1, "infection score, replicate 1": 7.96, "cell count, replicate 1": 6519, "outcome": "inactive"}
{"gene": "CG17803", "reagent no.": 2, "infection score, replicate 1": 0.66, "cell count, replicate 1": 6236, "outcome": "inactive"}
{"gene": "CG11052", "reagent no.": 1, "infection score, replicate 1": 15.2, "cell count, replicate 1": 5928, "outcome": "inactive"}
{"gene": "CG10097 + CG10096", "reagent no.": 1, "infection score, replicate 1": 17.7, "cell count, replicate 1": 5898, "outcome": "inactive"}
{"gene": "CG10097 + CG10096", "reagent no.": 2, "infection score, replicate 1": 20, "cell count, replicate 1": 5481, "outcome": "inactive"}
{"gene": "alpha-Est5 (alpha-Esterase-5)", "reagent no.": 1, "infection score, replicate 1": 6.13, "cell count, replicate 1": 5728, "outcome": "inactive"}
{"gene": "Vha14-2 (Vacuolar H[+] ATPase 14kD subunit 2)", "reagent no.": 1, "infection score, replicate 1": 5.33, "cell count, replicate 1": 6487, "outcome": "inactive"}
{"gene": "CG1354", "reagent no.": 1, "infection score, replicate 1": 6.76, "cell count, replicate 1": 6464, "outcome": "inactive"}
{"gene": "ng3 (new glue 3)", "reagent no.": 1, "infection score, replicate 1": 1.84, "cell count, replicate 1": 1194, "outcome": "inactive"}
{"gene": "ng3 (new glue 3)", "reagent no.": 2, "infection score, replicate 1": 5.65, "cell count, replicate 1": 5572, "outcome": "inactive"}
{"gene": "CG13716", "reagent no.": 1, "infection score, replicate 1": 14.7, "cell count, replicate 1": 6032, "outcome": "inactive"}
{"gene": "CG13716", "reagent no.": 2, "infection score, replicate 1": 2.21, "cell count, replicate 1": 6115, "outcome": "inactive"}
